Results of unrelated studies side by side (data: NIAID ChemDB).

Common to all: growth or infection tests; agent: Candida albicans

Lines come from different laboratories, so protocols vary. MIC50, MIC90 and the like: level of inhibition, or share of isolates inhibited. Blank or dashed fields: not listed here. ECn: concentration that inhibits the pathogen or its effect by n%. Two numbers with a dash give a range or band.

smiles	measure	conditions	method	strain or isolate	value
Clc1ccc(C(Cn2ccnc2)OCc2csc3c(Cl)cccc23)c(Cl)c1	MFC			16 strains	16 µg/mL
C[C@@H]1O[C@@H](O[C@H]2[C@H](O[C@H]3CC[C@]4(C)[C@H]5CC=C6[C@@H]7CC(C)(C)CC[C@]7(C(=O)O)CC[C@@]6(C)[C@]5(C)CC[C@H]4C3(C)C)OC[C@H](O)[C@@H]2O)[C@H](O)[C@H](O)[C@H]1O	MFC			ATCC 90029	>100 µg/mL
CC(C)(C)c1ncc(C(N)=O)nc1Sc1ccccc1	MIC			ATCC 44859	>31.25 µg/mL
C[C@@H]1O[C@@H](O[C@H]2[C@H](O)[C@@H](O)C(OC3[C@H](O[C@H]4CC[C@@]5(C)[C@@H](CC[C@]6(C)[C@@H]5CC=C5[C@@H]7CC(C)(C)CC[C@]7(C(=O)O)CC[C@]56C)[C@]4(C)CO)OC[C@H](O)[C@@H]3O)O[C@@H]2CO)[C@H](O)[C@H](O)[C@H]1O	MFC			Y0109	12.5 µg/mL
CCC(C)CC(C)CCCCCCCCC(=O)N[C@H]1C[C@@H](O)[C@H](NCCN)NC(=O)[C@@H]2[C@@H](O)CCN2C(=O)[C@H]([C@H](O)CCN)NC(=O)[C@H]([C@H](O)[C@@H](O)c2ccc(O)cc2)NC(=O)[C@@H]2C[C@@H](O)CN2C(=O)[C@H]([C@@H](C)O)NC1=O	MIC			CA1-R1	2 µg/mL
CCCSc1nc(Cl)c(C#N)c(-c2cccs2)n1	MIC				>100 µg/mL
CS[C@@H](n1cncn1)[C@@](O)(Cn1cncn1)c1ccc(Cl)cc1	MIC				>100 µg/mL
CC(=O)Cc1nc2ccccc2n1CC(O)(Cn1cncn1)c1ccc(F)cc1F	MIC				6.25–12.5 µg/mL
C[C@@H](c1ncncc1F)[C@](O)(Cn1cncn1)c1ccc(F)cc1F	MIC90		broth dilution		<0.004 µg/mL
CCCSc1ccc2nc(NC(=O)OC)[nH]c2c1	MIC	24 h		92-1341	5 µg/mL
Cc1cc(COc2ccc(Oc3ccc(Cl)cc3)cc2)n(O)c(=O)c1	MIC			TIMM2640	>8 µg/mL
CCCCN(CCCOP(=O)([O-])OCC[N+](C)(C)C)c1c([N+](=O)[O-])cc(C(F)(F)F)cc1[N+](=O)[O-]	MFC		broth dilution	ATCC 10231	>16 µg/mL
CN1CCC(n2cc(-c3nc(-c4ccccc4)n[nH]3)nn2)CC1	MIC		agar		30 µg/mL
CCCCN(CCCCCCOP(=O)([O-])OCC[N+](C)(C)C)c1c([N+](=O)[O-])cc(C(F)(F)F)cc1[N+](=O)[O-]	MFC		broth dilution	Clinical isolate 44A	>16 µg/mL
O=C(O)c1cc([N+](=O)[O-])c(N=Nc2c(O)ccc3ccccc23)c([N+](=O)[O-])c1	MIC			UBA 7	13.02 µg/mL
Cc1c(O)cccc1C(=O)N[C@@H](CSc1ccccc1)[C@H](O)CN1C[C@H]2CCCC[C@H]2C[C@H]1C(=O)NC(C)(C)C	MIC			I149A	>64 µg/mL
Nc1ncccc1-c1cc(Cc2ccc(COc3ccccn3)cc2)no1	MIC50	10% human serum	broth dilution	IFM49971	0.016 µg/mL
CO[C@@H](n1cccn1)[C@](O)(Cn1cncn1)c1ccc(F)cc1	MIC				>100 µg/mL
COC1=CC(=O)[C@H](O)[C@@](C)(O)[C@H]1O	MIC				>400 µg/mL
CC1=C2C[C@@H]3[C@](C)(CCC[C@@]3(C)O)C[C@]2(O)OC1=O	MIC		broth dilution	ATCC 90028	16 µg/mL
CC(C(=O)O)c1ccc2c(N=Nc3c([N+](=O)[O-])cc(C(=O)O)cc3[N+](=O)[O-])c(O)ccc2c1	MIC			UBA 7	15.63 µg/mL
CCCCCCCCCCCCCC[C@@H](N)C(=O)N[C@H](C(=O)O)C1O[C@@H](n2ccc(=O)[nH]c2=O)[C@H](O)[C@@H]1O	MIC			H317	>320 µg/mL
O=C(c1ccccc1)N1CCC(n2cc(-c3nc(-c4ccccc4)n[nH]3)nn2)CC1	MIC		agar		100 µg/mL
CSc1c[n+](C)c2ccccc2c1Nc1ccc(Cl)cc1	MIC		broth dilution	ATCC 10231	128 µg/mL
CC(C)CCCCCCCCC1CC(=O)NCC(=O)N[C@@H](CCCN)C(=O)N[C@@H](C(C)C)C(=O)N1	MIC			ATCC 10231	2.5 µg/mL
COCc1nc2ccccc2n1CC(O)(Cn1cncn1)c1ccc(F)cc1F	MIC				25–50 µg/mL
CCCSc1nc(C(N)=S)cnc1C(C)(C)C	MIC			ATCC 44859	>31.25 µg/mL
CS[C@@H](n1cncn1)[C@](O)(Cn1cncn1)c1ccc(Cl)cc1	MIC				>100 µg/mL
C=C1C(=O)OC2C3C4(OC4[C@H](O)[C@@]3(C)O)[C@@H](C)C[C@H](O)[C@@H]12	MIC				20 µg/mL
CO[C@@H](n1cncn1)[C@](O)(Cn1ccnc1)c1ccc(Cl)cc1	MIC				>100 µg/mL
CSc1c[n+](C)c2ccccc2c1Nc1ccc(C)cc1	MIC		broth dilution	ATCC 10231	128 µg/mL
CO[C@@H](n1cncn1)[C@](O)(Cn1cncn1)c1ccc(F)cc1	MIC				>100 µg/mL
CCCCCCCCCCCCCCCCOP(=O)([O-])OCC[N+](C)(C)C	MFC		broth dilution	Clinical isolate 44A	4 µg/mL
CS[C@@H](n1cncn1)[C@](O)(Cn1cncn1)c1ccc(F)cc1F	MIC				>100 µg/mL
CCCCCCCCCCCOC(=O)c1cc(O)c(O)c(O)c1	MIC				>400 µg/mL
CCC(C)CCCCCCCCC1CC(=O)NCC(=O)N[C@@H](CCCN)C(=O)N[C@@H](C(C)C)C(=O)N1	MIC			IFM 40009	1.25 µg/mL
C[C@@H]1O[C@@H](O[C@H]2[C@H](O)[C@@H](O)C(OC3[C@H](O[C@H]4CC[C@]5(C)[C@H]6CC=C7[C@@H]8CC(C)(C)CC[C@]8(C(=O)O)CC[C@@]7(C)[C@]6(C)CC[C@H]5C4(C)C)OC[C@H](O)[C@@H]3O)O[C@@H]2CO)[C@H](O)[C@H](O)[C@H]1O	MFC			ATCC 90029	>100 µg/mL
COc1ccc(-c2n[nH]c(-c3cn(C4CCN(C)CC4)nn3)n2)cc1	MIC		agar		30 µg/mL
CO[C@@H](n1cncn1)[C@@](O)(Cn1cncn1)c1ccc(C(F)(F)F)cc1	MIC				>100 µg/mL
CC(C)C[C@H](N)C(=O)O	MFC100		broth dilution	ATCC 10231	>72000 µg/mL
CCCCc1ncc(C(N)=S)nc1SCC	MIC			ATCC 44859	>31.25 µg/mL
C[n+]1cc(SC(=O)c2ccccc2)c(Nc2ccccc2)c2ccccc21	MIC		broth dilution	ATCC 10231	512 µg/mL
O=C(/C=C/c1ccc(O)cc1O)c1ccccc1	MIC			SDAU5	75 µg/mL
Oc1ccc2cc1Oc1ccc(cc1)CCc1ccc(c(O)c1)-c1c(O)cccc1CC2	MIC80		broth dilution	SC5314	16 µg/mL
OC(Cn1cncn1)(Cn1ccnc1-c1ccccc1)c1ccc(F)cc1F	MIC				<3.125 µg/mL
N#Cc1c(Cl)nc(SCc2ccc(Cl)cc2)nc1-c1cccs1	MIC				100 µg/mL
CC(C)C1=C[C@H]2C[C@]3(C=O)[C@@H]4CC[C@@H](C)[C@H]4C[C@@]2(CO[C@H]2C[C@@H]4OC(C)(C)O[C@@H]4[C@@H](C)O2)[C@]13C(=O)O	MIC			Isolate 4711E fluconazole-susceptible	<0.01 µg/mL
CCCSc1nc(C(N)=O)cnc1C(C)(C)C	MIC			ATCC 44859	>31.25 µg/mL
C(=C\c1ccccc1)/CN1CCN(C(c2ccccc2)c2ccccc2)CC1	MIC			66 strains	413 µg/mL
CC1(C)CC[C@]2(C(=O)O)CC[C@]3(C)C(=CC[C@@H]4[C@@]5(C)CC[C@H](OC6O[C@H](CO)[C@@H](O)[C@H](O)[C@H]6OC6O[C@H](CO)[C@@H](O)[C@H](O)[C@H]6O)[C@@](C)(CO)[C@@H]5CC[C@]43C)[C@@H]2C1	MFC			ATCC 90029	>100 µg/mL
COC(=O)/C(C)=C1\C(=O)[C@H](O)[C@]2(C)C3=C1[C@]14OC(=O)C5=C1C[C@H]1[C@](O)(COC(=O)/C(C)=C/COC(=O)CCC(=O)OC5)[C@H]5C[C@H]5[C@]1(C)[C@@H]4C[C@]3(O)[C@H]1C[C@H]12	MIC		broth dilution	ATCC 90028	4 µg/mL
CCCCSc1nc(C(N)=S)cnc1CCCC	MIC			ATCC 44859	>31.25 µg/mL
O=C(/C=C/c1cc(O)ccc1O)c1ccccc1	MIC			SDAU4	100 µg/mL
C/C1=C\C(=O)c2c(C)coc2C/C(C)=C/CC1	MIC		broth dilution	ATCC 90028	128 µg/mL
C=C1C(=O)O[C@@H]2/C=C(\C)CC/C=C(\C)CC[C@@H]12	MIC		agar diffusion	MTCC 227	>250 µg/mL
CC(=O)N1CCC(n2cc(-c3nc(-c4ccc(C)cc4)n[nH]3)nn2)CC1	MIC		agar		80 µg/mL
CCCc1ncc(C(N)=S)nc1SC	MIC			ATCC 44859	>31.25 µg/mL
CCCCCOc1ccc(-c2cc(-c3ccc(C(=O)N[C@H]4C[C@@H](O)[C@@H](O)NC(=O)[C@@H]5[C@@H](O)[C@@H](C)CN5C(=O)[C@H]([C@H](O)CC(N)=O)NC(=O)[C@H]([C@H](O)[C@@H](O)c5ccc(O)c(OS(=O)(=O)O)c5)NC(=O)[C@@H]5C[C@@H](O)CN5C(=O)[C@H]([C@@H](C)O)NC4=O)cc3)no2)cc1	MIC50			24 strains	0.0156 µg/mL
C[n+]1cc(SC(=O)c2ccccc2)c(Nc2ccc(F)cc2)c2ccccc21	MIC		broth dilution	ATCC 10231	256 µg/mL
CC(C)CC(O)C(=O)O	EC50		broth dilution	ATCC 10231	18000 µg/mL
CCCSc1nc(C(N)=O)cnc1CCC	MIC			ATCC 44859	>31.25 µg/mL
CC(=O)N1CCC(n2cc(-c3nc(-c4ccc(Cl)cc4)n[nH]3)nn2)CC1	MIC		agar		30 µg/mL
CC(=O)N1CCN(c2ccc(OC[C@H]3CO[C@](Cn4ccnc4)(c4ccc(Cl)cc4Cl)O3)cc2)CC1	MIC			66 strains	34.5 µg/mL
CCCCc1ncc(C(N)=S)nc1Sc1ccccc1	MIC			ATCC 44859	>31.25 µg/mL

For reference, 8 entries again:

smiles	measure	conditions	method	strain or isolate	value
O=C(c1ccccc1)N1CCC(n2cc(-c3nc(-c4ccccc4)n[nH]3)nn2)CC1	MIC		agar		100 µg/mL
CCC(C)CC(C)CCCCCCCCC(=O)N[C@H]1C[C@@H](O)[C@H](NCCN)NC(=O)[C@@H]2[C@@H](O)CCN2C(=O)[C@H]([C@H](O)CCN)NC(=O)[C@H]([C@H](O)[C@@H](O)c2ccc(O)cc2)NC(=O)[C@@H]2C[C@@H](O)CN2C(=O)[C@H]([C@@H](C)O)NC1=O	MIC			CA1-R1	2 µg/mL
CC(C)CC(O)C(=O)O	EC50		broth dilution	ATCC 10231	18000 µg/mL
CC(=O)N1CCN(c2ccc(OC[C@H]3CO[C@](Cn4ccnc4)(c4ccc(Cl)cc4Cl)O3)cc2)CC1	MIC			66 strains	34.5 µg/mL
CO[C@@H](n1cncn1)[C@](O)(Cn1ccnc1)c1ccc(Cl)cc1	MIC				>100 µg/mL
CCCCN(CCCCCCOP(=O)([O-])OCC[N+](C)(C)C)c1c([N+](=O)[O-])cc(C(F)(F)F)cc1[N+](=O)[O-]	MFC		broth dilution	Clinical isolate 44A	>16 µg/mL
CCCCCCCCCCCCCCCCOP(=O)([O-])OCC[N+](C)(C)C	MFC		broth dilution	Clinical isolate 44A	4 µg/mL
CC(C)C[C@H](N)C(=O)O	MFC100		broth dilution	ATCC 10231	>72000 µg/mL